Measured values from several laboratories, pooled; numbers as filed in NIAID ChemDB.

Shared fields: whole-cell or culture tests; agent: Coxsackie virus; cell line: HeLa; measure: EC50

ECn: concentration that inhibits the pathogen or its effect by n%.

Cc1ccc(CCCOc2c(C)cc(-c3nnn(C)n3)cc2C)nn1 ; method: cytopathic effect ; value: 0.033–0.659 µg/mL
COC(=O)[C@]1(C)CCC[C@]2(C)c3cc4cc[nH]c4cc3CCC12 ; strain: TYPE B4 ; method: plaque count ; value: >4 µg/mL
Nc1nc(F)nc2c1ncn2[C@@H]1C=C(CO)[C@@H](O)[C@H]1O ; strain: TYPE B4 ; method: cytopathic effect ; value: ≥100 µg/mL
COC(=O)[C@]1(C)CCC[C@]2(C)c3cc(Br)c4[nH]ccc4c3CCC12 ; strain: TYPE B4 ; method: plaque count ; value: >4 µg/mL
CC(=O)OCCOCN1C=CC(=O)N(COCCOC(C)=O)S1(=O)=O ; strain: TYPE B4 ; value: >400 µg/mL
O=C(NCCCl)N1CC[N+]2(CC1)CC[N+]1(CCN(C(=O)NCCCl)CC1)CC2 ; strain: B3 ; method: cytopathic effect ; value: >70 µg/mL
NC1CSCCN2CCc3c([nH]c4ccccc34)[C@H]12 ; strain: TYPE B4 ; method: cytopathic effect ; value: 20 µg/mL
Cc1nc(N2CC[N+]3(CC2)CC[N+]2(CCN(c4nc(C)[nH]c(=O)c4[N+](=O)[O-])CC2)CC3)c([N+](=O)[O-])c(=O)[nH]1 ; strain: B3 ; method: cytopathic effect ; value: >70 µg/mL
CC(=O)OCCOCN1C(=N)/C(=C(\C)O)C(N)=NS1(=O)=O ; strain: TYPE B4 ; value: >400 µg/mL
N#CC1=CSc2nnc(-c3cn(-c4ccccc4)nc3-c3ccccc3)n2N=C1N ; strain: TYPE B4 ; method: cytopathic effect ; value: >16 µg/mL
COC(=O)[C@]1(C)CCC[C@]2(C)c3cc(Br)c4nc(C)[nH]c4c3CCC12 ; strain: TYPE B4 ; method: plaque count ; value: >4 µg/mL
COCc1ccc(CCCOc2cc(C)c(-c3noc(C)n3)c(C)c2)nn1 ; method: cytopathic effect ; value: 0.033–0.659 µg/mL
C=C(N=CC)c1nc(-c2ccc(C)cc2)n(C2O[C@H](CO)[C@@H](O)[C@H](O)[C@H]2O)n1 ; strain: TYPE B4 ; method: cytopathic effect ; value: >200 µg/mL
CC1(C)[C@@H](CCO)C[C@H]1n1nnc2c(N)ncnc21 ; strain: TYPE B4 ; method: cytopathic effect ; value: >400 µg/mL
Cc1cn([C@H]2C[C@H]([N+](=O)[O-])[C@@H](CO)O2)c(=O)[nH]c1=O ; method: cytopathic effect ; value: >200 µg/mL
CC(C)CS[C@@H]1C[C@H](n2cnc3c(N)ncnc32)[C@@H](O)[C@H]1O ; strain: TYPE B4 ; method: cytopathic effect ; value: >80 µg/mL
CS(=O)(=O)c1ccc(Cc2ccc(Sc3ccccc3)cc2)nc1 ; strain: TYPE A21 ; method: cytopathic effect ; value: <0.6 µg/mL
C=CCc1nc(C)n2c(=O)[nH]c(NC(C)=O)nc12 ; strain: TYPE B4 ; method: cytopathic effect ; value: >400 µg/mL
CS(=O)(=O)c1ccc(Oc2ccc(C(=O)c3ccccc3)cc2)nc1 ; strain: A21 ; method: cytopathic effect ; value: 1.3 µg/mL
Nc1ncnc2c1ncn2C1CC(CO)[C@@H](O)[C@H]1O ; strain: TYPE B4 ; method: cytopathic effect ; value: 4 µg/mL
Nc1ncnc2c1cnn2Cc1cn(CCCCO)nn1 ; strain: B4 ; value: >400 µg/mL
Cc1cn([C@@H]2OC[C@H](CO)[C@H]2N=[N+]=[N-])c(=O)[nH]c1=O ; strain: TYPE B4 ; method: cytopathic effect ; value: >80 µg/mL
O=C1C=CN(COCCO)S(=O)(=O)N1COCCO ; strain: TYPE B4 ; value: >400 µg/mL
COC(=O)[C@]1(C)CCC[C@]2(C)c3cc(Br)c4nc(C(F)(F)F)[nH]c4c3CCC12 ; strain: TYPE B4 ; method: plaque count ; value: >4 µg/mL
CS(=O)(=O)c1ccc(NCc2ccc(Cl)c(Cl)c2)nc1 ; strain: TYPE B4 ; method: cytopathic effect ; value: >10 µg/mL
CC1(C)[C@@H](CCO)C[C@H]1n1nnc2c(=O)[nH]c(N)nc21 ; strain: TYPE B4 ; method: cytopathic effect ; value: 200 µg/mL
COc1ccc(CNc2ccc(S(C)(=O)=O)cn2)cc1OC ; strain: TYPE A21 ; method: cytopathic effect ; value: >10 µg/mL
CON=C[C@H]1O[C@@H](n2cnc3c(N)ncnc32)[C@H](O)[C@@H]1O ; strain: B4 ; method: cytopathic effect ; value: >200 µg/mL
Nc1nc2c(ncn2[C@H]2OC[C@@H](CO)C2O)c(=O)[nH]1 ; strain: TYPE B4 ; method: cytopathic effect ; value: >80 µg/mL
CCON=C[C@H]1O[C@@H](n2cnc3c(N)ncnc32)[C@H](O)[C@@H]1O ; strain: B4 ; method: cytopathic effect ; value: >200 µg/mL
CCS(=O)(=O)c1ccc(NCc2ccc(Cl)c(Cl)c2)nc1C#N ; strain: TYPE A21 ; method: cytopathic effect ; value: 2.5 µg/mL
CC1(C)[C@@H](CO)CC[C@@]1(C)Cn1nnc2c(Cl)ncnc21 ; strain: TYPE B4 ; method: cytopathic effect ; value: >400 µg/mL
Cc1nc(CC(O)CO)c2nc[nH]c(=O)n12 ; strain: TYPE B4 ; method: cytopathic effect ; value: >400 µg/mL
NC1=Nn2c(nnc2-c2cn(-c3ccccc3)nc2-c2ccccc2)SC1 ; strain: TYPE B4 ; method: cytopathic effect ; value: >16 µg/mL
OCCCCn1cc(Cn2ncc3c(SCc4ccccc4)ncnc32)nn1 ; strain: B4 ; value: >400 µg/mL
CCS(=O)(=O)c1ccc(Cc2ccc(Cl)c(Cl)c2)nc1 ; strain: TYPE A21 ; method: cytopathic effect ; value: 1.3 µg/mL
Cc1cc(OCCCc2ccc(C(C)F)nn2)cc(C)c1-c1noc(C(F)F)n1 ; method: cytopathic effect ; value: 0.033–0.659 µg/mL
CCOC(=O)/C=C/C=C/[C@H]1O[C@@H](n2ccc(=O)[nH]c2=O)[C@H](O)[C@@H]1O ; strain: B4 ; value: ≥200 µM
N#Cc1cccnc1Oc1ccc(C(=O)c2ccccc2)cc1 ; strain: TYPE A21 ; method: cytopathic effect ; value: ≤2.1 µg/mL
O=C(Nn1c(-c2cn(-c3ccccc3)nc2-c2ccccc2)n[nH]c1=S)c1ccccc1 ; strain: TYPE B4 ; method: cytopathic effect ; value: 48 µg/mL
CC(=O)c1ccc(CCCOc2c(C)cc(-c3noc(C(F)F)n3)cc2C)nn1 ; method: cytopathic effect ; value: 0.033–0.659 µg/mL
Nn1c(-c2cn(-c3ccccc3)nc2-c2ccccc2)n[nH]c1=S ; strain: TYPE B4 ; method: cytopathic effect ; value: >16 µg/mL
Nc1ncnc2c1ncn2[C@@H]1C[C@H](CO)[C@@H](O)[C@H]1O ; strain: TYPE B4 ; method: cytopathic effect ; value: >4 µg/mL
COCC1=C[C@@H](n2cnc3c(N)ncnc32)[C@H](O)[C@@H]1O ; strain: TYPE B4 ; method: cytopathic effect ; value: >200 µg/mL
CSc1nc(Cl)c(C=O)c(N2CC[N+]3(CC2)CC[N+]2(CCN(c4nc(SC)nc(Cl)c4C=O)CC2)CC3)n1 ; strain: B3 ; method: cytopathic effect ; value: >70 µg/mL
CC(=O)OCCOCN1C(=O)C=CN(COCCO)S1(=O)=O ; strain: TYPE B4 ; value: >400 µg/mL
CC=NC(=N)c1nc(-c2ccc(OC)cc2)n(COCCO)n1 ; strain: TYPE B4 ; method: cytopathic effect ; value: >200 µg/mL
CC1(C)[C@@H](CCO)C[C@H]1n1cnc2c(N)ncnc21 ; strain: TYPE B4 ; method: cytopathic effect ; value: 150 µg/mL
CCN(CC)C(=S)Sc1ncnc(N2CC[N+]3(CC2)CC[N+]2(CCN(c4ncnc(SC(=S)N(CC)CC)c4[N+](=O)[O-])CC2)CC3)c1[N+](=O)[O-] ; strain: B3 ; method: cytopathic effect ; value: >70 µg/mL
CC1=C[C@@H](n2cnc3c(N)ncnc32)[C@H](O)[C@@H]1O ; strain: TYPE B4 ; method: cytopathic effect ; value: >200 µg/mL
COc1ccc2[nH]c3c(c2c1)CCN1OCSCC(N)[C@@H]31 ; strain: TYPE B4 ; method: cytopathic effect ; value: 0.02 µg/mL
CN(C)c1ccc(Cc2ccc(S(C)(=O)=O)cn2)cc1 ; strain: TYPE A21 ; method: cytopathic effect ; value: >10 µg/mL
c1ccc(C2=Nn3c(nnc3-c3cn(-c4ccccc4)nc3-c3ccccc3)SC2)cc1 ; strain: TYPE B4 ; method: cytopathic effect ; value: 1.92 µg/mL
O=[N+]([O-])c1c(N2CC[N+]3(CC2)CC[N+]2(CCNCC2)CC3)ncnc1N1CC[N+]2(CC1)CC[N+]1(CCN(c3ncnc(N4CC[N+]5(CC4)CC[N+]4(CCNCC4)CC5)c3[N+](=O)[O-])CC1)CC2 ; strain: B3 ; method: cytopathic effect ; value: >70 µg/mL
OCCCCn1cc(Cn2ncc3c(NCc4ccccc4)ncnc32)nn1 ; strain: B4 ; value: >400 µg/mL
CC1(C)[C@@H](CO)CC[C@@]1(C)Cn1cnc2c(=O)[nH]cnc21 ; strain: TYPE B4 ; method: cytopathic effect ; value: >400 µg/mL
C=CCc1nc(C)n2c(=O)[nH]cnc12 ; strain: TYPE B4 ; method: cytopathic effect ; value: >400 µg/mL
O=C1CSc2nnc(-c3cn(-c4ccccc4)nc3-c3ccccc3)n2N1 ; strain: TYPE B4 ; method: cytopathic effect ; value: >16 µg/mL
COc1cc2c(cc1OC)[C@@H]1C(N)CSCON1CC2 ; strain: TYPE B4 ; method: cytopathic effect ; value: 4 µg/mL
CC1=CC(=O)N(c2ccccc2)S(=O)(=O)N1COCCO ; strain: TYPE B4 ; value: >400 µg/mL
CC1(C)[C@@H](CO)CC[C@@]1(C)Cn1nnc2c(=O)[nH]cnc21 ; strain: TYPE B4 ; method: cytopathic effect ; value: >400 µg/mL
Nc1ccn([C@@H]2OC[C@H](CO)[C@H]2O)c(=O)n1 ; strain: TYPE B4 ; method: cytopathic effect ; value: >80 µg/mL
CS(=O)(=O)c1ccc(Cc2ccc(Cl)c(Cl)c2)nc1 ; strain: TYPE A21 ; method: cytopathic effect ; value: 5 µg/mL
C=CCc1nc(C)n2c(=O)[nH]c(=S)[nH]c12 ; strain: TYPE B4 ; method: cytopathic effect ; value: >200 µg/mL
CC=NC(=N)c1nc(-c2ccc(C)cc2)n(C/C=C/c2ccccc2)n1 ; strain: TYPE B4 ; method: cytopathic effect ; value: >10 µg/mL
CS(=O)c1ccc(Cc2ccc(S(C)(=O)=O)cn2)cc1 ; strain: TYPE A21 ; method: cytopathic effect ; value: >10 µg/mL
O=[N+]([O-])c1c(Cl)nc(C(F)(F)F)nc1N1CC[N+]2(CC1)CC[N+]1(CCN(c3nc(C(F)(F)F)nc(Cl)c3[N+](=O)[O-])CC1)CC2 ; strain: B3 ; method: cytopathic effect ; value: >70 µg/mL
CCOC(=O)C1=CSc2nnc(-c3cn(-c4ccccc4)nc3-c3ccccc3)n2N=C1N ; strain: TYPE B4 ; method: cytopathic effect ; value: >16 µg/mL
CC(=O)c1ccc(CCCOc2cc(C)c(-c3noc(C)n3)c(C)c2)nn1 ; method: cytopathic effect ; value: 0.033–0.659 µg/mL
O=[N+]([O-])c1c(N2CC[N+]3(CC2)CC[N+]2(CCNCC2)CC3)ncnc1N1CC[N+]2(CC1)CC[N+]1(CCNCC1)CC2 ; strain: B3 ; method: cytopathic effect ; value: >70 µg/mL
CC=NC(=N)c1nc(-c2ccc(OC)cc2)n(C/C=C/c2ccccc2)n1 ; strain: TYPE B4 ; method: cytopathic effect ; value: >400 µg/mL

The last 6 rows once more:

CS(=O)c1ccc(Cc2ccc(S(C)(=O)=O)cn2)cc1 ; strain: TYPE A21 ; method: cytopathic effect ; value: >10 µg/mL
O=[N+]([O-])c1c(Cl)nc(C(F)(F)F)nc1N1CC[N+]2(CC1)CC[N+]1(CCN(c3nc(C(F)(F)F)nc(Cl)c3[N+](=O)[O-])CC1)CC2 ; strain: B3 ; method: cytopathic effect ; value: >70 µg/mL
CCOC(=O)C1=CSc2nnc(-c3cn(-c4ccccc4)nc3-c3ccccc3)n2N=C1N ; strain: TYPE B4 ; method: cytopathic effect ; value: >16 µg/mL
CC(=O)c1ccc(CCCOc2cc(C)c(-c3noc(C)n3)c(C)c2)nn1 ; method: cytopathic effect ; value: 0.033–0.659 µg/mL
O=[N+]([O-])c1c(N2CC[N+]3(CC2)CC[N+]2(CCNCC2)CC3)ncnc1N1CC[N+]2(CC1)CC[N+]1(CCNCC1)CC2 ; strain: B3 ; method: cytopathic effect ; value: >70 µg/mL
CC=NC(=N)c1nc(-c2ccc(OC)cc2)n(C/C=C/c2ccccc2)n1 ; strain: TYPE B4 ; method: cytopathic effect ; value: >400 µg/mL

a–b is a range or a potency band. Rows are shuffled and stem from different studies.